Compound potency records, mixed from different reports. Data source: NIAID ChemDB in PubChem.

Shared fields: growth or infection tests

ECn is the concentration giving n% inhibition of infection, replication or growth. An empty or dashed field is not shown. Neighbouring rows are from separate reports. MIC50, MIC90 and the like: level of inhibition, or share of isolates inhibited. Inhibition is in % at the dose shown (toxicity tests: loss of growth or viability).

SMILES | dose | conditions | method | strain | agent | measure | cells | result
O=c1[nH]c(=O)n([C@H]2C[C@H](O)[C@@H](CO)O2)cc1/C=C/Br | 10 µM |  |  |  | Epstein-Barr virus | inhibition | P3HR-1 | 4%
CO[C@@H]1C[C@@H](C[C@H]2CC[C@H](C)[C@H]([C@@H](C)C(C)=O)O2)OC2(O[C@](C)([C@H]3CC[C@@](C)([C@@H]4O[C@@H]([C@H]5O[C@@](O)(CO)[C@@H](C)C[C@@H]5C)C[C@@H]4C)O3)C[C@H]2C)[C@@H]1C | 0.005 µg/mL |  | uracil uptake / radiometric | RH | Toxoplasma gondii | inhibition |  | 0%
COc1ccc(C)c(NCc2cnc3nc(N)nc(N)c3c2C)c1 | 0.1 µg/mL |  |  |  | Encephalitozoon intestinalis | inhibition | RK-13 | 69.8%
C#CC[C@@H](C(=O)N[C@H](/C=C/C(=O)OCC)C[C@@H]1CCNC1=O)n1cccc(NC(=O)c2cc(C)on2)c1=O | 0.084 µM |  | cytopathic effect / XTT | Serotype 17 | Rhinovirus | inhibition | H1-HELA | 90%
C[C@H]1COc2c(N3CCN(C)CC3)c(F)cc3c(=O)c(C(=O)O)cn1c23 |  |  |  | Clinical isolate 6406 | Streptococcus pneumoniae | MIC |  | 4 µg/mL
CO[C@@H]1[C@H](OC(=O)NC(=O)CCl)CC[C@]2(CO2)[C@H]1[C@@]1(C)O[C@@H]1CC=C(C)C | 1 µg/mL |  |  |  | Encephalitozoon intestinalis | inhibition | RK-13 | 84.1%
Nc1ncnc2c1ncn2CCOCP(=O)(O)O |  |  | antigen / flow cytometry | GS | Human herpesvirus 6 | EC50 | HSB-2 | 28 µM
CO[C@@H]1[C@@H](O[C@@H]2O[C@H](C)[C@@H](O[C@H]3C[C@@](C)(O)[C@@H](O)[C@H](C)O3)[C@H](N(C)C)[C@H]2O)[C@@H](CC=O)C[C@@H](C)[C@@H](O[C@H]2CC[C@H](N(C)C)[C@H](C)O2)/C=C/C=C/C[C@@H](C)OC(=O)C[C@H]1O | 2 µg/mL |  |  |  | Toxoplasma gondii | inhibition |  | 58%
Nc1ncnc2c1ncn2C[C@H](O)CO | 100 µM |  |  |  | Epstein-Barr virus | inhibition | P3HR-1 | 4%
Nc1ncc2c(ncn2COC(CO)CO)n1 |  |  | cytopathic effect | GS | Human herpesvirus 6 | EC50 | HSB-2 | 0.03 µM
O=C(Nc1ncc([N+](=O)[O-])s1)c1ccccc1O | 0.001 µg/mL |  |  |  | Vittaforma corneae | inhibition | RK-13 | 31.7%
CCO/N=C/c1ccc(OCCC2CCN(c3ccc(C)nn3)CC2)cc1 |  |  | neutral red | 1059 (ICAM-1 receptor group 14) | Rhinovirus | EC50 | KB | 0.068 µM
NC(=O)c1[nH]nc([C@@H]2O[C@H](CO)[C@@H](O)[C@H]2O)c1O |  |  | cytopathic effect / visual reading | Uganda | West Nile virus | EC50 | VERO | 0.5 µg/mL
Cc1cn([C@H]2C[C@H](N=[N+]=[N-])[C@@H](COP(=O)(O)OC[C@H]3OC(O)[C@H](O)[C@@H](O)[C@@H]3O)O2)c(=O)[nH]c1=O | 0.2 µM | 7 d | RT activity | LAV-Bru | HIV-1 | inhibition | CEM | 92%
O=c1[nH]c(=O)n([C@H]2C[C@H](O)[C@@H](CO)O2)cc1/C=C/Br |  |  | antigen / flow cytometry | GS | Human herpesvirus 6 | EC50 | HSB-2 | >1 µM
CC(=O)OC[C@H]1O[C@@H](n2ncc(=O)[nH]c2=O)[C@H](OC(C)=O)[C@@H]1OC(C)=O |  |  | cytopathic effect | Uganda | West Nile virus | EC50 | VERO | 0.8 µg/mL
CC1COc2c(N3CCN(C)CC3)c(F)cc3c(=O)c(C(=O)O)cn1c23 |  |  |  | 10 strains | Enterococcus faecium | MIC90 |  | 4 µg/mL
Nc1ncnc2c1ncn2[C@@H]1C=C(CO)[C@@H](O)[C@H]1O |  |  | cytopathic effect | AD169 | Cytomegalovirus | EC50 | HEL | 1.1 µg/mL
CO[C@H]1[C@@H](OC(=O)/C=C/C=C/C=C/C=C/C(=O)O)CC[C@@]2(CO2)[C@@H]1[C@@]1(C)O[C@@H]1CC=C(C)C | 0.0005 µg/mL |  |  |  | Encephalitozoon intestinalis | inhibition | RK-13 | 62.9%
Cc1cn([C@H]2C[C@H](N=[N+]=[N-])[C@@H](CO)O2)c(=O)[nH]c1=O | 0.2 µM | 15 d | RT activity | LAV-Bru | HIV-1 | inhibition | CEM | 94%
Nc1nc2c(nnn2CCOCP(=O)(O)O)c(=O)[nH]1 |  |  | cytopathic effect | GS | Human herpesvirus 6 | EC50 | HSB-2 | 25 µM
C[C@H](Cc1ccc(O)c(O)c1)[C@@H](C)Cc1ccc(O)c(O)c1 |  |  | broth dilution | CCC 117-2000 | Candida krusei | MIC100 |  | 500 µg/mL
Cc1cn([C@H]2C[C@H](N=[N+]=[N-])[C@@H](COP(=O)(O)OC[C@H]3OC(O)[C@@H](O)[C@@H](O)[C@@H]3O)O2)c(=O)[nH]c1=O | 5 µM | 15 d | RT activity | LAV-Bru | HIV-1 | inhibition | CEM | 93%
CN(C)[C@@H]1C(=O)C(C(N)=O)=C(O)[C@@]2(O)C(=O)C3=C(O)c4c(O)c(NC(=O)CNc5ccccc5)cc(F)c4C[C@H]3C[C@@H]12 |  |  | agar diffusion | 111-27853 | Pseudomonas aeruginosa | EC50 |  | >32 µg/mL
O=c1cnn([C@@H]2O[C@H](CO)[C@@H](O)[C@H]2O)c(=O)[nH]1 |  |  | virus yield | NEW YORK | West Nile virus | EC90 | MA-104 | 0.3 µg/mL
NC(=O)c1c[se]c([C@@H]2O[C@H](CO)[C@@H](O)[C@H]2O)n1 |  |  | cytopathic effect | TYPE B1/HA201468 | Coxsackie virus | EC50 | VERO | 15 µg/mL
Oc1c(O)c(Cl)c(Cl)c(Cl)c1Cl |  |  |  |  | Saccharomyces cerevisiae | MIC |  | 20 µg/mL
Nc1nc2c(ncn2COC(CO)CO)c(=O)[nH]1 |  |  | antigen / flow cytometry | GS | Human herpesvirus 6 | EC50 | HSB-2 | >25 µM
CNC1CCc2cc(OC)c(OC)c(OC)c2-c2ccc(OC)c(=O)cc21 | 0.1 µg/mL |  |  |  | Encephalitozoon intestinalis | inhibition | RK-13 | 59.2%
O=C(O)P(=O)(O)O |  |  | antigen / flow cytometry | GS | Human herpesvirus 6 | EC50 | HSB-2 | 5.8 µM
CCOC(=O)Nc1cc2[nH]c(-c3ccc4c(c3)OCO4)nc2c(NC(c2ccccc2)c2ccccc2)n1 | 0.1 µg/mL |  |  |  | Encephalitozoon intestinalis | inhibition | RK-13 | 53.9%
CC(C)(C)C(=O)OCOP(=O)(COCCn1cnc2c(N)ncnc21)OCOC(=O)C(C)(C)C |  |  | cytopathic effect | GS | Human herpesvirus 6 | EC50 | HSB-2 | 0.56 µM
NC(=O)c1c[se]c([C@@H]2O[C@H](CO)[C@@H](O)[C@H]2O)n1 |  |  | cytopathic effect / visual reading | Uganda | West Nile virus | EC50 | VERO | 14 µg/mL
NC(=O)c1ncn([C@@H]2O[C@H](CO)[C@@H](O)[C@H]2O)n1 | 3.2 µg/mL |  | antigen |  | Pichinde virus | inhibition | VERO 76 | 43%
Nc1nccc2c1ncn2C[C@H]1COP(=O)(O)CO1 |  |  | antigen / flow cytometry | GS | Human herpesvirus 6 | EC50 | HSB-2 | 3.7 µM

For reference, 3 entries again:

SMILES | dose | conditions | method | strain | agent | measure | cells | result
CNC1CCc2cc(OC)c(OC)c(OC)c2-c2ccc(OC)c(=O)cc21 | 0.1 µg/mL |  |  |  | Encephalitozoon intestinalis | inhibition | RK-13 | 59.2%
O=c1cnn([C@@H]2O[C@H](CO)[C@@H](O)[C@H]2O)c(=O)[nH]1 |  |  | virus yield | NEW YORK | West Nile virus | EC90 | MA-104 | 0.3 µg/mL
Nc1ncnc2c1ncn2C[C@H](O)CO | 100 µM |  |  |  | Epstein-Barr virus | inhibition | P3HR-1 | 4%